According to US20090099343A1, “Isolation of pathogenic prions” (priority 2005, published 2009):

B1: Peptide reagent SEQ ID NO:109 (peptide)
chain: QWNKPSKGKTN
B2: Peptide reagent SEQ ID NO:112 (peptide)
chain: QWNKPSKGKTN
B3: Peptide reagent SEQ ID NO:113 (peptide)
chain: QWNKPSKGKTN
B4: Peptide reagent SEQ ID NO:114 (peptide)
chain: QWNKPSKGKTN

The binders below were run against PrP^Sc, pathogenic prion protein in brain homogenate of RML PrP^Sc+ Balb-c mice (mouse), P04925.
For B1, the ELISA A405nm was 0.865 A405nm.
B2 was tested, and the ELISA A405nm was 0.974 A405nm.
B3 showed an ELISA A405nm of 2.04 A405nm.
For B4, the ELISA A405nm was 0.776 A405nm.
